Anti-infective test results gathered from many reports (values: NIAID ChemDB through PubChem).

Common to all: whole-cell or culture tests; agent: Influenza A virus; endpoint: EC50

Conditions beyond the fields shown may differ between rows. ECn: concentration that inhibits the pathogen or its effect by n%. An empty or dashed field is not shown. Two numbers with a dash give a range or band.

{"compound": "Nc1nc(Cl)cc(NCC2(O)CCC2)n1", "cells": "MDCK", "read by": "plaque count", "strain": "H1N1 A/PR/8/34", "value": ">130 µM"}
{"compound": "COc1cc2c(c3c1C[C@]1(C)[C@@H](C)CC[C@H]4C(C)(C)[C@@H](OC(C)=O)CC[C@]41O3)CNC2=O", "cells": "MDBK", "strain": "H1N1 A/WSN/33", "value": ">23 µM"}
{"compound": "CCC(CC)[C@H](NC(C)=O)[C@@H]1[C@H](O)[C@@H](C(=O)O)C[C@H]1N=C(N)N", "cells": "MDCK", "read by": "plaque count", "strain": "H1N1 TEXAS/36/91", "value": "0.0001 µM"}
{"compound": "CCOc1nc2c(nc(N)n2[C@@H]2O[C@H](CO)[C@@H](O)[C@H]2F)c(=O)[nH]1", "cells": "MDCK", "read by": "plaque count", "strain": "A/Sweden", "value": "28.5 µM"}
{"compound": "CCC(CC)[C@H](NC(C)=O)[C@@H]1C[C@@H](C(=O)O)C[C@H]1N=C(N)N", "cells": "MDCK", "strain": "H1N1 A/Beijing/252/95", "value": "0.56 µM"}
{"compound": "Nc1nccc(NCC2(CO)CCC2)n1", "cells": "MDCK", "read by": "plaque count", "strain": "H1N1 A/PR/8/34", "value": "300 µM"}
{"compound": "COc1nc2c(nc(N)n2[C@@H]2O[C@H](CO)[C@@H](O)[C@H]2F)c(=O)[nH]1", "cells": "CEF", "read by": "virus yield", "strain": "Recombinant A/X31", "value": "0.4 µM"}
{"compound": "CC(N)C12CC3CC(CC(C3)C1)C2", "cells": "MDCK", "read by": "ELISA", "strain": "Influenza A/Shanghai/16/89 (H3N2)", "value": "0.018 µg/mL"}
{"compound": "CCC", "cells": "MDCK", "strain": "Sichuan/2/87 (H3)", "value": ">500 µM"}
{"compound": "CCCC(CCC)C(NC(C)=O)C1CC(C(=O)O)CC1N=C(N)N", "cells": "MDCK", "strain": "Influenza A/Washington/897/80 (H3N2)", "value": "<0.01 µM"}
{"compound": "O=c1ccn([C@@H]2O[C@H](CO)[C@@H](O)[C@H]2F)c(=O)[nH]1", "cells": "CEF", "read by": "virus yield", "strain": "Recombinant A/X31", "value": ">20 µM"}
{"compound": "CC(=O)O[C@H]1CC[C@@]23Oc4c(c(OCc5ccccc5)cc5c4CNC5=O)C[C@]2(C)[C@@H](C)CC[C@H]3C1(C)C", "cells": "MDBK", "strain": "H1N1 A/WSN/33", "value": ">12 µM"}
{"compound": "Nc1nc(Cl)cc(NCCCO)n1", "cells": "MDCK", "read by": "plaque count", "strain": "H1N1 A/PR/8/34", "value": ">490 µM"}
{"compound": "Nc1ncnc2c1ncn2[C@@H]1O[C@H](CO)[C@@H](O)[C@H]1F", "cells": "MDCK", "read by": "plaque count", "strain": "A/Sweden", "value": "52 µM"}
{"compound": "COC1(OC)CC(CO)(CNc2cc(Cl)nc(N)n2)C1", "cells": "MDCK", "read by": "plaque count", "strain": "H1N1 A/PR/8/34", "value": ">99 µM"}
{"compound": "CC(=O)O[C@H]1CC[C@@]23Oc4c(c(O)c(Br)c5c4CNC5=O)C[C@]2(C)[C@@H](C)CC[C@H]3C1(C)C", "cells": "MDBK", "strain": "H1N1 A/WSN/33", "value": "1.6 µM"}
{"compound": "C/C(=C\\CCC(C)[C@H]1CC[C@@]2(C)C3=C(CC[C@]12C)[C@@]1(C)CC[C@H](O)C(C)(C)C1CC3=O)CO", "cells": "MDCK", "value": "220 µM"}
{"compound": "CC(=O)N[C@H]1[C@H]([C@H](O)[C@H](O)CO)OC(C(=O)O)=C[C@@H]1N=C(N)N", "cells": "MDCK", "read by": "neutral red", "strain": "H1N1 A/TEXAS/36/91", "value": "0.018 µM"}
{"compound": "CCC(CC)[C@H](NC(C)=O)[C@@H]1[C@H](O)[C@@H](C(=O)O)C[C@H]1N=C(N)N", "cells": "MDCK", "strain": "H1N1 A/TEXAS/36/91", "value": "0.09 µM"}
{"compound": "C[C@H]1CC[C@H]2C(C)(C)C(=O)CC[C@]23Oc2c(c(O)cc4c2CNC4=O)C[C@]13C", "cells": "MDBK", "strain": "H1N1 A/WSN/33", "value": "0.006 µM"}
{"compound": "Nc1nc(Cl)cc(NCC2(CO)CC(Cc3ccccc3)C2)n1", "cells": "MDCK", "read by": "plaque count", "strain": "H1N1 A/PR/8/34", "value": "0.42–1.2 µM"}
{"compound": "Nc1nc2c(ncn2[C@@H]2O[C@H](CO)[C@@H](O)[C@H]2F)c(=O)[nH]1", "cells": "CEF", "read by": "virus yield", "strain": "Recombinant A/X31", "value": "0.55 µM"}
{"compound": "CCC(CC)[C@H](NC(C)=O)[C@@H]1[C@H](O)[C@@H](C(=O)O)C[C@H]1N=C(N)N", "cells": "MDCK", "read by": "visual reading", "strain": "Influenza A/Sydney/05/97 (H3N2)", "value": "0.12 µM"}
{"compound": "Nc1nc2c(=O)[nH]c(Cl)nc2n1[C@@H]1O[C@H](CO)[C@@H](O)[C@H]1F", "cells": "CEF", "read by": "virus yield", "strain": "Recombinant A/X31", "value": "0.1 µM"}
{"compound": "C[C@H]1CC[C@H]2C(C)(C)[C@@H](O)CC[C@]23Oc2c(c(OCC(=O)O)cc4c2CNC4=O)C[C@]13C", "cells": "MDBK", "strain": "H1N1 A/WSN/33", "value": "7 µM"}
{"compound": "Nc1nc(Cl)cc(NCC2(CCO)CCC2)n1", "cells": "MDCK", "read by": "plaque count", "strain": "H1N1 A/PR/8/34", "value": ">120 µM"}

Repeating the first 3 entries:

compound,cells,read by,strain,value
Nc1nc(Cl)cc(NCC2(O)CCC2)n1,MDCK,plaque count,H1N1 A/PR/8/34,>130 µM
COc1cc2c(c3c1C[C@]1(C)[C@@H](C)CC[C@H]4C(C)(C)[C@@H](OC(C)=O)CC[C@]41O3)CNC2=O,MDBK,-,H1N1 A/WSN/33,>23 µM
CCC(CC)[C@H](NC(C)=O)[C@@H]1[C@H](O)[C@@H](C(=O)O)C[C@H]1N=C(N)N,MDCK,plaque count,H1N1 TEXAS/36/91,0.0001 µM